According to PMC5408207, “Differences in Ribosome Binding and Sarcin/Ricin Loop Depurination by Shiga and Ricin Holotoxins” (2017):

Target: Shiga toxin 2 (Stx2) holotoxin (E. coli)

Substance: Yeast monomeric ribosomes
- binding level, percent higher than on Stx1, at 2.5 nM ribosomes: 90%
- binding level, percent higher than on Stx1, at 40 nM ribosomes: 66%
